Measured values from several laboratories, pooled; numbers as filed in NIAID ChemDB.

All rows: tests in culture; organism: HIV-1; cells: MT-4; read-out: EC50

Neighbouring rows are from separate reports. Blank or dashed fields: not listed here. ECn: concentration that inhibits the pathogen or its effect by n%.

compound | strain or isolate | changes | method | setting | result
CC(C)C[C@H](NC(=O)[C@@H](NC(=O)[C@H](Cc1c[nH]c2ccccc12)NC(=O)CCCCC(=O)Nc1ccn([C@H]2CC[C@@H](CO[Si](c3ccccc3)(c3ccccc3)C(C)(C)C)O2)c(=O)n1)C(C)C)[C@@H](O)CC(=O)NC(Cc1ccccc1)c1ccccc1 | - | - | syncytia | - | 10 µM
OC[C@H]1O[C@H](On2cnc3c(Cl)ncnc32)CS1 | - | - | - | - | >100 µg/mL
Cc1cn([C@@H]2OC(O[Si](C)(C)C(C)(C)C)C3(OS(=O)(=O)C=C3NCCC(=O)OCc3ccccc3)C2O[Si](C)(C)C(C)(C)C)c(=O)n(C)c1=O | IIIB | - | cytopathic effect | - | >250 µM
O=c1cc(CCl)nc2c3ncn([C@H]4C[C@H](O)[C@@H](COP(=O)(O)O)O4)c3ncn12 | LAV-1 | - | RT activity | - | >200 µM
O=C(O)c1ccc2nc(-c3c(F)cccc3F)n(Cc3c(F)cccc3F)c2c1 | IIIB | - | RT activity | - | >117 µM
O=c1[nH]c(=O)n([C@H]2C[C@H](F)[C@@H](CO)O2)cc1/C=C/Br | IIIB | - | cytopathic effect | - | 30 µM
CC(C)CCC[C@@H](C)[C@H]1CC[C@H]2[C@@H]3CC[C@H]4C[C@@H](CCC=C(c5cc(Cl)c(O)c(C(=O)O)c5)c5cc(Cl)c(O)c(C(=O)O)c5)CC[C@]4(C)[C@H]3CC[C@]12C | A17 | Pyridinone-resistant (RT K103N Y181C) | cytopathic effect | - | 20 µM
CC(C)C[C@H](NC(=O)[C@@H](NC(=O)[C@H](Cc1c[nH]c2ccccc12)NC(=O)CCCCCCC(=O)Nc1ccn([C@H]2CC[C@@H](CO)O2)c(=O)n1)C(C)C)[C@@H](O)CC(=O)NC(Cc1ccccc1)c1ccccc1 | - | - | syncytia | - | 1 µM
Clc1ncnc2ncn([C@@H]3C=CC4(CC3)O[C@H](c3ccccc3)[C@@H](c3ccccc3)O4)c12 | NL4-3 | - | MTT | - | >2.4 µg/mL
Cc1cc(C#N)cc(C)c1Oc1nc(NC2CCN(Cc3ccc(S(C)(=O)=O)cc3)CC2)nc2sccc12 | IIIB | NNRTI-resistant (RT L100I) | MTT | - | 0.00785 µM
O=c1ccn([C@H]2C=C[C@@H](O)CC2)c(=O)[nH]1 | NL4-3 | - | MTT | - | >25 µg/mL
CCOCn1c(C(=O)c2cccc(C#N)c2)c(CC)c(OC)nc1=O | IIIB | K103N + Y181C | MTT | - | >100 µM
Cc1cc(/C=C/C#N)cc(C)c1Oc1nc(NC2CCN(Cc3cccc(Br)c3)CC2)nc2ccsc12 | IIIB | NNRTI-resistant (RT F227L V106A) | MTT | - | 0.0936 µM
O=C(OC1CCCC1)c1cccn1S(=O)(=O)c1cc(Cl)ccc1[N+](=O)[O-] | IIIB | - | cytopathic effect / MTT | - | >11 µM
CCOCn1c(Cc2ccccc2)c(C(C)C)c(=O)[nH]c1=O | IIIB | EFV | MTT | - | 100 µM
CC(=O)Oc1ccc(/C=C/C(=O)Nc2ccc(S(=O)(=O)Nc3cccc(Cl)c3F)cc2)cc1OC(C)=O | - | - | - | - | >25 µM
N#Cc1cccn1S(=O)(=O)c1cc(Cl)ccc1[N+](=O)[O-] | IIIB | - | cytopathic effect / MTT | - | >1.4 µM
O=C(/C=C/c1ccc(O)c(O)c1)Nc1ccc(S(=O)(=O)Nc2ccc(Br)cc2)cc1 | - | - | - | - | >15 µM
Cc1cc(/C=C/C#N)cc(C)c1Oc1nc(NC2CCN(Cc3cccc(Cl)c3)CC2)nc2ccsc12 | IIIB | NNRTI-resistant (RT K103N) | MTT | - | 0.0298 µM
COCCC[C@@]1(C)C(=O)c2c(O)c(=O)c(C(=O)NCc3c(F)cccc3F)cn2C[C@@H]1OC | NL4-3 | - | GFP | 0% human serum | 0.0022 µM
C#CCOC(=O)c1cccn1S(=O)(=O)c1cc(Cl)ccc1[N+](=O)[O-] | IIIB | - | cytopathic effect / MTT | - | >4.9 µM
CC(C)(C)OC(=O)N(CCCCCC(=O)Nc1ccn([C@H]2CS[C@@H](COC(=O)CCCCCN(CCCCCN(Cc3ccccc3)C(=O)OC(C)(C)C)C(=O)OC(C)(C)C)O2)c(=O)n1)CCCCCN(Cc1ccccc1)C(=O)OC(C)(C)C | LAV | - | syncytia | - | 1 µM
O=C1Nc2ccc(Cl)cc2[C@@](C#CC2CC2)(C(F)(F)F)O1 | - | V106A | - | - | 0.0065 µM
CC1CCNC2CCCCC2NC(C)CCNC2CCCCC2N1 | ROD | - | MTT | - | 134 µM
C=C1C(n2cnc3c(N)ncnc32)C=CC1(CO)CO | - | - | - | - | 55.5 µM
Cc1cn([C@H]2C[C@H](F)[C@@H](CO)O2)c(=O)nc1N | IIIB | - | cytopathic effect | - | 2 µM
CCCOCn1c(C(F)c2cccc(C#N)c2)c(CC)c(=O)[nH]c1=O | IIIB | EFV | MTT | - | >100 µM
Cc1ccc(CN2CCC(Nc3nc(Oc4c(C)cc(/C=C/C#N)cc4C)c4sccc4n3)CC2)cc1 | RES056 | - | MTT | - | 0.146 µM
C=C1C(n2ccc(=O)[nH]c2=O)C=CC1(CO)CO | - | - | - | - | 58 µM
CC(=O)OC1C(OC(C)=O)[C@H](n2cnc3c2ncn2c(CCl)cc(=O)nc32)O[C@@H]1OC(C)=O | LAV-1 | - | RT activity | - | >200 µM
Nc1ccc(Cl)cc1S(=O)(=O)n1cccc1C(=O)OC1CCCC1 | IIIB | - | cytopathic effect / MTT | - | 2 µM
Cc1cn([C@H]2C[C@H](F)[C@@H](CO)O2)c(=O)[nH]c1=S | IIIB | - | cytopathic effect | - | 1 µM
O=C1C=C[C@H](n2cnc3c(Cl)ncnc32)CC1 | NL4-3 | - | MTT | - | >13.5 µg/mL
O=C(Nc1sc2c(c1C(=O)Nc1ccccn1)CCCCC2)c1ccc(O)c(O)c1 | IIIB | - | MTT / absorbance | - | >30.69 µM
CC(=O)Oc1cc(C(=O)Nc2ccc(S(=O)(=O)Nc3ccccc3Br)cc2)cc(OC(C)=O)c1OC(C)=O | - | - | - | - | >25 µM
CC(C)(C)OC(=O)N(CCCCCC(=O)OC[C@H]1O[C@@H](n2ccc(N)nc2=O)CS1)CCCCCN(Cc1ccccc1)C(=O)OC(C)(C)C | LAV | - | syncytia | - | 0.01 µM
Nc1ncnc2c1ncn2O[C@H]1CS[C@@H](CO)O1 | - | - | - | - | >100 µg/mL
Nc1nc2c(ncn2[C@H]2C=C[C@@H](OCP(=O)(O)O)C2(F)F)c(=O)[nH]1 | - | - | cytopathic effect | - | 32 µM
O=C(OC1CCCCC1)c1cccn1S(=O)(=O)c1cc(Cl)ccc1[N+](=O)[O-] | IIIB | - | cytopathic effect / MTT | - | >160 µM
O=C(CCCCCNCCCCCNCc1ccccc1)Nc1ccn([C@@H]2CS[C@@H](COC(=O)CCCCCNCCCCCNCc3ccccc3)O2)c(=O)n1 | LAV | - | syncytia | - | 10 µM
O=c1ccn2cnc3c(ncn3[C@@H]3O[C@H](CO)[C@@H](O)[C@H]3O)c2n1 | LAV-1 | - | RT activity | - | >1500 µM
COCC[C@]1(C)C(=O)c2c(O)c(=O)c(C(=O)NCc3ccc(F)cc3F)cn2C[C@@H]1OC | NL4-3 | - | GFP | 0% human serum | 0.0013 µM
Cc1cc(C#N)cc(C)c1Oc1nc(NC2CCC(NCc3ccc(O)cc3)CC2)nc2ccsc12 | IIIB | NNRTI-resistant (RT F227L V106A) | MTT | - | >20.1 µM
C#CCOC(=O)c1cccn1S(=O)(=O)c1cc(Cl)ccc1N | IIIB | - | cytopathic effect / MTT | - | 1.86 µM
Nc1ncnc2c1ncn2O[C@@H]1CS[C@@H](CO)O1 | - | - | - | - | >100 µg/mL
C[C@]12CCCCC[C@]1(O)Cn1cc(C(=O)NCc3ccc(F)cc3F)c(=O)c(O)c1C2=O | NL4-3 | - | GFP | 100% human serum | 1.114 µM
Fc1ccccc1Cn1c(-c2ccccc2F)nc2ccccc21 | IIIB | - | RT activity | - | 2.62 µM
NNC(=O)c1cccn1S(=O)(=O)c1cc(Cl)ccc1N | IIIB | - | cytopathic effect / MTT | - | >200 µM
OC[C@@H]1OC[C@@H](On2cnc3c(Cl)ncnc32)O1 | - | - | - | - | >100 µg/mL
CCOC(=O)c1ccc(CN2CCC(Nc3nc(Oc4c(C)cc(C#N)cc4C)c4ccsc4n3)CC2)cc1 | IIIB | NNRTI-resistant (RT E138K) | MTT | - | 0.498 µM
CC(CO)n1cnc2c(Cl)nc(N)nc21 | LAV-1 | - | RT activity | - | >100 µM
COc1cc2c(cc1Cc1c(F)cccc1Cl)nc(-c1c(F)cccc1Cl)n2Cc1c(F)cccc1Cl | IIIB | - | RT activity | - | >127 µM
Cc1cc(C)cc(NS(=O)(=O)c2ccc(NC(=O)/C=C/c3ccc(O)c(O)c3)cc2)c1 | - | - | - | - | >12 µM
O=C(CCCCCNCc1ccccc1)Nc1ccn([C@H]2CS[C@@H](CO)O2)c(=O)n1 | LAV | - | syncytia | - | 10 µM
Nc1ncnc2c1ncn2[C@@H]1C=CC(O)CC1 | NL4-3 | - | MTT | - | >25 µg/mL
O=c1ccn([C@H]2C[C@H](F)[C@@H](CO)O2)c(=O)[nH]1 | IIIB | - | cytopathic effect | - | 0.275 µM
CC(C)(C)OC(=O)N(CCCCCC(=O)OC[C@H]1O[C@@H](n2ccc(N)nc2=O)CS1)Cc1ccccc1 | LAV | - | syncytia | - | 0.05 µM

Again, the opening 9 rows:

compound	strain or isolate	changes	method	setting	result
CC(C)C[C@H](NC(=O)[C@@H](NC(=O)[C@H](Cc1c[nH]c2ccccc12)NC(=O)CCCCC(=O)Nc1ccn([C@H]2CC[C@@H](CO[Si](c3ccccc3)(c3ccccc3)C(C)(C)C)O2)c(=O)n1)C(C)C)[C@@H](O)CC(=O)NC(Cc1ccccc1)c1ccccc1	-	-	syncytia	-	10 µM
OC[C@H]1O[C@H](On2cnc3c(Cl)ncnc32)CS1	-	-	-	-	>100 µg/mL
Cc1cn([C@@H]2OC(O[Si](C)(C)C(C)(C)C)C3(OS(=O)(=O)C=C3NCCC(=O)OCc3ccccc3)C2O[Si](C)(C)C(C)(C)C)c(=O)n(C)c1=O	IIIB	-	cytopathic effect	-	>250 µM
O=c1cc(CCl)nc2c3ncn([C@H]4C[C@H](O)[C@@H](COP(=O)(O)O)O4)c3ncn12	LAV-1	-	RT activity	-	>200 µM
O=C(O)c1ccc2nc(-c3c(F)cccc3F)n(Cc3c(F)cccc3F)c2c1	IIIB	-	RT activity	-	>117 µM
O=c1[nH]c(=O)n([C@H]2C[C@H](F)[C@@H](CO)O2)cc1/C=C/Br	IIIB	-	cytopathic effect	-	30 µM
CC(C)CCC[C@@H](C)[C@H]1CC[C@H]2[C@@H]3CC[C@H]4C[C@@H](CCC=C(c5cc(Cl)c(O)c(C(=O)O)c5)c5cc(Cl)c(O)c(C(=O)O)c5)CC[C@]4(C)[C@H]3CC[C@]12C	A17	Pyridinone-resistant (RT K103N Y181C)	cytopathic effect	-	20 µM
CC(C)C[C@H](NC(=O)[C@@H](NC(=O)[C@H](Cc1c[nH]c2ccccc12)NC(=O)CCCCCCC(=O)Nc1ccn([C@H]2CC[C@@H](CO)O2)c(=O)n1)C(C)C)[C@@H](O)CC(=O)NC(Cc1ccccc1)c1ccccc1	-	-	syncytia	-	1 µM
Clc1ncnc2ncn([C@@H]3C=CC4(CC3)O[C@H](c3ccccc3)[C@@H](c3ccccc3)O4)c12	NL4-3	-	MTT	-	>2.4 µg/mL